Results: PubChem BioAssay AID651644 (National Center for Advancing Translational Sciences (NCATS), 2012)
This is a selection; strong and weak results do not stand in their true shares. Activity calls are given as the source filed them. Calls come from the whole dose curve; as a rule, active = well fitted falling curve with a large enough effect; inconclusive = small, poorly fitted or top-dose-only effect; inactive = no such curve, though single readings can be large or run the other way.

Test: qHTS Assay for Inhibitors of the HIV-1 protein Vpr; note: nearly all actives have a fitted effect of over 50% in size
Conditions: S. pombe RE007 Vpr strain, BacTiter-Glo ATP luminescence, 24 h; at 92.2 µM (top of the series) unless noted
% is set by controls: 0 for no effect and ±100 for the full control effect.

Row | Structure (SMILES) | activity change, negative = less growth
1 | COC(=O)C1(C)COP(=O)(Nc2ccccc2)OC1 (configuration not stated) | inactive: -13.4%
2 | O=[N+]([O-])c1cccc(NC2=NCC(CBr)S2)c1 (configuration not stated) | inactive: 9.79%
3 | O=C(O)CNc1ccc([As](=O)(O)O)cc1 | inactive: 3.28%
4 | CC(C)(C)C(=O)NC(Sc1ccncn1)C(Cl)(Cl)Cl (configuration not stated) | inactive: -21.3%
5 | O=[N+]([O-])c1ncn(CCn2ncnc2[N+](=O)[O-])n1 | inactive: 7.07%
6 | O=C(Nc1cc([As](=O)(O)O)ccc1O)c1ccccc1 | inactive: 10.6%
7 | CCOC(=O)c1ccc(NP(C)(=O)Oc2ccc(Cl)cc2)cc1 (configuration not stated) | inactive: -22.5%
8 | CP(=O)(OC12CC3CC(CC(C3)C1)C2)OC12CC3CC(CC(C3)C1)C2 | inactive: 1.77%
9 | Nc1ccc2c(ccc3cccnc32)n1.O=[N+]([O-])c1cc([N+](=O)[O-])c(O)c([N+](=O)[O-])c1 | inactive: 5.74%
10 | O=P1(N(CCCl)CCCl)OCCCS1 (configuration not stated) | inactive: -4.61%
11 | CN(C)C(=O)OCCc1n(C)cc[n+]1C | inactive: -4.18%
12 | CC(C)c1nc(Nc2ccccc2)n(P(=O)(N(C)C)N(C)C)n1 | inactive: -10.2%
13 | CC(C)=N/N=C(\N)N[N+](=O)[O-] | inactive: 3.13%
14 | CN(C)C(=O)c1c([N+](=O)[O-])cc([N+](=O)[O-])cc1[N+](=O)[O-] | inactive: -26.1%
15 | CC1CCN(C(=O)Oc2c(Cl)cc(Cl)c3cccnc23)CC1 | inactive: -4.56%
16 | c1cc(-c2nn[nH]n2)ccc1-c1nn[nH]n1 | inactive: -13.7%
17 | C[N+]1=C2C=CC=CC=C2SC12C([N+](=O)[O-])=CC([N+](=O)[O-])=C[C-]2[N+](=O)[O-] (configuration not stated) | inactive: -29.3%
18 | COc1ccccc1OP(C)(=O)Nc1ccccc1Br (configuration not stated) | inactive: 18.5%
19 | Nc1ccc([As](=O)(O)c2ccc(N)cc2)cc1 | inactive: 14%
20 | CC(C)(C)c1ccc(OP(C)(=O)O)cc1 | inactive: 8.62%
21 | CP(=O)(Nc1ccc(Cl)cc1)Oc1ccc(F)cc1 (configuration not stated) | inactive: 8.91%
22 | CCN(/C(=N/P(=O)(N1CCOCC1)N1CCOCC1)N1CCOCC1)c1ccc(OC)cc1 | inactive: -8.49%
23 | O=C(OCCCN1CCCC1)C(O)(c1ccccc1)C1CCCCC1 (configuration not stated) | inactive: -1.58%
24 | CC(=O)N1C2C3N(C(C)=O)C1C1N(C(C)=O)C(C(N1C(C)=O)N3C(C)=O)N2C(C)=O | inactive: 4.88%
25 | O=[N+]([O-])c1cccc2n[nH]nc12 | inactive: 10.1%
26 | COc1ccccc1OP(C)(=O)Nc1c(C)n(C)n(-c2ccccc2)c1=O (configuration not stated) | inactive: -9.94%

Row | Structure (SMILES) | activity change, negative = less growth
27 | CCc1ccc(OP(C)(=O)Nc2cccnc2)cc1 (configuration not stated) | inactive: -5.83%
28 | CCc1nc2c(n1)c1c(non1O)c1c2no[n+]1[O-] | inactive: -24.6%
29 | CP(=O)(Oc1ccccc1)N1CCOC1=O (configuration not stated) | inactive: 6.8%
30 | Cc1ccc(NP(=O)(Oc2ccccc2)Oc2ccccc2)nc1 | inactive: -2.64%
31 | COc1ccc(OP(C)(=O)Nc2ccc(Br)cc2)cc1 (configuration not stated) | inactive: 21.6%
32 | COc1ccc(C2=NCC(CBr)S2)cc1 (configuration not stated) | inactive: -3.51%
33 | CCN(CC)CC(O)COC(=O)C(O)(c1ccccc1)C1CCCCC1 (configuration not stated) | inactive: -2.48%
34 | COc1ccccc1OP(C)(=O)Nc1ccc(C)cc1C (configuration not stated) | inactive: 31.5%
35 | CP(=O)(Nc1ccccn1)Oc1ccccc1 (configuration not stated) | inactive: 21.3%
36 | O=[N+]([O-])C1C(O)C(O)C([N+](=O)[O-])C(O)C1O (configuration not stated) | inactive: 0.478%
37 | CCc1ccc(OP(C)(=O)O)cc1 | inactive: -0.909%
38 | Nc1cc(N)c2nonc2c1[N+](=O)[O-] | inactive: -0.616%
39 | Cc1c(NP(C)(=O)Oc2ccc(C(C)C)cc2)c(=O)n(-c2ccccc2)n1C (configuration not stated) | inactive: 2.44%
40 | CC(C)CC(=O)NC(Sc1ccc(Cl)cc1)C(Cl)(Cl)Cl (configuration not stated) | inactive: -2.23%
41 | O=C(NC(Sc1ccncn1)C(Cl)(Cl)Cl)c1ccccc1 (configuration not stated) | inactive: -12.5%
42 | Oc1ccccc1CNc1ccccn1 | inactive: 3.46%
43 | Cc1ccc(OP(=O)(Nc2nccs2)Oc2ccc(C)cc2)cc1 | inactive: 7.27%
44 | COc1ccccc1OP(=O)(Nc1ccc(C)cn1)Oc1ccccc1OC | inactive: 8.92%
45 | COc1ccc(OP(C)(=O)Nc2ccccn2)cc1 (configuration not stated) | inactive: -6.5%
46 | CN1CCCC(OC(=O)C(c2ccccc2)c2ccccc2)C1 (configuration not stated) | inactive: -5.44%
47 | CN(C)CCOC(=O)C(O)(c1ccccc1)C1CCCC1 (configuration not stated) | inactive: 1.9%
48 | Clc1ccc(Cl)c(NC2=NCC(CBr)S2)c1 (configuration not stated) | inactive: 1.02%
49 | NC(=O)c1cc([N+](=O)[O-])cc([N+](=O)[O-])c1N | inactive: -4.67%
50 | Cc1ccc(N/C(=N/P(=O)(N2CCOCC2)N2CCOCC2)N2CCOCC2)cc1 | inactive: -13.7%
51 | COc1ccccc1OP(C)(=O)Nc1ccc(Br)cc1 (configuration not stated) | inactive: -25%
52 | CCN(N=Nc1nonc1N)c1nonc1N | inactive: 7.73%

Row | Structure (SMILES) | activity change, negative = less growth
53 | CP(=O)(Nc1ccc(Cl)cc1Cl)Oc1ccccc1 (configuration not stated) | inactive: 10.8%
54 | CP(=O)(OCCOc1ccccc1)OCCOc1ccccc1 | inactive: -12.3%
55 | COc1ccccc1OP(C)(=O)Nc1ccc(C)c(C)c1 (configuration not stated) | inactive: -6.9%
56 | Cc1ccc(NP(=O)(Oc2ccccc2F)Oc2ccccc2F)nc1 | inactive: 6.62%
57 | Cc1cc(SC(NC(=O)c2ccc(F)cc2)C(Cl)(Cl)Cl)ncn1 (configuration not stated) | inactive: -6.76%
58 | CCOP(=O)(Nc1ccccc1)OCC | inactive: -15.7%
59 | COc1ccc(OP(C)(=O)Nc2ccccc2Br)cc1 (configuration not stated) | inactive: -5.1%
60 | CCCC1OP(N)(=O)OCC1CC (configuration not stated) | inactive: -13%
61 | CC(=O)Nc1ccc([As](=O)(O)O)cc1 | inactive: 0.993%
62 | O=C(O)c1ccccc1[As](=O)(O)O | inactive: -3.61%
63 | O=P(Nc1nc2ccc(Cl)cc2s1)(c1ccccc1)c1ccccc1 | inactive: -1.24%
64 | CN(C)P(=O)(N(C)C)n1c(Nc2ccccc2)nnc1-c1ccccc1 | inactive: -24.8%
65 | Cc1cc(C)cc(OP(C)(=O)Nc2cccc(C(F)(F)F)c2)c1 (configuration not stated) | inactive: -2.08%
66 | CP(=O)(Nc1ccccc1)Oc1ccc(F)cc1 (configuration not stated) | inactive: 10%
67 | CN(C)C(=O)Oc1noc2ccccc12 | inactive: -5%
68 | CC(NC(=O)COC(=O)C(O)(c1ccccc1)c1ccccc1)c1ccccc1 (configuration not stated) | inactive: -1.98%
69 | Cc1ccccc1OP(=O)(Nc1ccccn1)Oc1ccccc1C | inactive: 12%
70 | CC(=O)NC(SC(=S)N(CC(C)C)CC(C)C)C(Cl)(Cl)Cl (configuration not stated) | inactive: 20.2%
71 | Cc1ccc(OP(=O)(Nc2ccccn2)Oc2ccc(C)cc2)cc1 | inactive: -8.92%
72 | COC(=O)c1cc2c(s1)N=C(c1ccccc1)N(C)P2(=O)N1CCOCC1 (configuration not stated) | inactive: -3.6%
73 | Cc1c([N+](=O)[O-])cc([N+](=O)[O-])c(Br)c1[N+](=O)[O-] | inactive: -0.464%
74 | CCC(=O)N1C2C3N(C(=O)CC)C1C1N(C(=O)CC)C(C(N1C(=O)CC)N3C(=O)CC)N2C(=O)CC | inactive: 5.08%
75 | CCN(CC)CCCOC(=O)C(O)(c1ccccc1)C1CCCCC1 (configuration not stated) | inactive: -5.16%
76 | O=C(OC1CN2CCC1CC2)c1ccccc1 (configuration not stated) | inactive: 9.33%
77 | CCOC(=O)c1ccc(NP(C)(=O)Oc2ccc(F)cc2)cc1 (configuration not stated) | inactive: -1.72%
78 | O=P1(N(CCCl)CCCl)OCCC2CCCCN21 (configuration not stated) | inactive: 16.3%

Row | Structure (SMILES) | activity change, negative = less growth
79 | COc1ccc(OP(C)(=O)Nc2ccc(SC(F)(F)F)cc2)cc1 (configuration not stated) | inactive: 0.439%
80 | O=C(NC1CCS(=O)(=O)C1)NP(=S)(Oc1ccccc1)Oc1ccccc1 (configuration not stated) | inactive: -8.38%
81 | CCNC(=S)/N=C(\N)N[N+](=O)[O-] | inactive: 3.33%
82 | Cc1ccc(NP(=O)(Oc2cccc(C)c2)Oc2cccc(C)c2)nc1 | inactive: 0.08%
83 | c1ccc(-c2nn[nH]n2)c(-c2nn[nH]n2)c1 | inactive: 4.91%
84 | CC(=O)Nc1ccc(Oc2c([N+](=O)[O-])cc([N+](=O)[O-])cc2[N+](=O)[O-])cc1 | inactive: 0.663%
85 | CC(=O)Nc1ccc([As](=O)(O)O)c(O)c1 | inactive: -11.9%
86 | COC(=O)C1(C)COP(=O)(NCc2ccccc2)OC1 (configuration not stated) | inactive: -14.1%
87 | CC(=O)c1ccc(N2CC2c2ccncc2)cc1 (configuration not stated) | inactive: 5.65%
88 | N#C/C(=C\c1ccc(N(CCBr)CCBr)cc1)C(N)=O | inactive: -22.4%
89 | C[C@H]1OP(=O)(Oc2ccccc2)C[C@@H]2O[C@@H]21 (some centres not stated) | inactive: 4.36%
90 | C[C@@H]1C=CCP(=O)(Oc2ccccc2)O1 (some centres not stated) | inactive: 2.78%
91 | O=C(OCCN1CCN(CCOCc2ccccc2)CC1)C(O)(c1ccccc1)c1ccccc1 | inactive: -14.8%
92 | Cc1ccccc1CN(C)C(=O)COC(=O)C(O)(c1ccccc1)c1ccccc1 | inactive: 30.4%
93 | CP(=O)(Nc1ccccc1F)Oc1ccccc1 (configuration not stated) | inactive: -8.61%
94 | CCc1cc(O)c([N+](=O)[O-])c(C)c1[N+](=O)[O-] | inactive: -21.9%
95 | CC(C)c1ccc(OP(C)(=O)Nc2ccc(SC(F)(F)F)cc2)cc1 (configuration not stated) | inactive: 0.0566%
96 | CC(C)(C)C(=O)NC(Sc1ccccc1)C(Cl)(Cl)Cl (configuration not stated) | inactive: 4.69%
97 | CCOc1ccc(C2=NCC(CBr)S2)cc1 (configuration not stated) | inactive: -0.629%
98 | Cc1ccccc1NP(C)(=O)Nc1ccccc1C | inactive: 19.1%
99 | O=[N+]([O-])c1cc([N+](=O)[O-])c(C(F)(F)F)c([N+](=O)[O-])c1O | inactive: 0.408%
100 | CP(=O)(Nc1ccc2c(c1)OCCO2)Oc1ccccc1 (configuration not stated) | inactive: 0.117%
101 | CCOP(C)(=S)SCC(=O)NC(C)(CC)C(=O)O (configuration not stated) | inactive: 11.4%
102 | c1nnnn1CCn1cnnn1 | inactive: 7.55%
